PubChem BioAssay AID504761 – Drosophila RNAi Screening Center – 2011
Screen: 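Genome-wide fly cell screen for genes dengue virus requires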 (primary screen). System: D.Mel-2 cells from Drosophila. Reagent: long dsRNA against Drosophila genes. Challenge: infection with dengue virus type 2; dose and infection time not stated. Measurement: 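Cells stained for dengue envelope protein and imaged; percent of infected cells per well on duplicate plates, ranked by infection, with stained nuclei counted for cell number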. Reading the numbers: infection score: higher = more virus-infected cells. Hit rule: 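Low infection ranks in the two replicates (chance level up to 0.065) followed by a retest with a 1.5-fold or larger significant decrease, p below 0.05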. Meaning of the calls: active = confirmed: knock-down lowers infection; inactive = not picked or not confirmed.
In all, the deposit lists about 22,000 reagents; this is an unselected part of those with a known target gene and a result. Of all reagents, 116 (0.52%) got an active call. 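Calls depend on retest data that are not deposited; infection was ranked per plate without normalising between plates; the unit of the infection score is not given.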 A number with no mark means an inactive call. Further read-outs or replicates are left out here. Not stated in the record: the amount of reagent, the time to read-out.

For CG10418 [DRSC09720], the values are infection score, replicate 1 = 2.06. Silencing of CG43999 [DRSC14605] came out at: infection score, replicate 1 = 2.25. For Vps15 [DRSC16553], the values are infection score, replicate 1 = 4.08. After knock-down of Lime [DRSC06752], the screen gave infection score, replicate 1 = 3.46. CG14949 [DRSC08408] scored infection score, replicate 1 = 5.5. After knock-down of CG6833 [DRSC10721] the results were infection score, replicate 1 = 4.82.

Knock-down of CG6833 [DRSC24711] gave: infection score, replicate 1 = 9.34. Silencing of sds22 [DRSC17052] resulted in: infection score, replicate 1 = 12.3.

2 entries already listed, ordered by “infection score, replicate 1”, low to high:
CG6833 [DRSC24711] — infection score, replicate 1: 9.34
sds22 [DRSC17052] — infection score, replicate 1: 12.3

More results follow.
For Hex-t2 [DRSC22517], the entry reads infection score, replicate 1 = 3.72. For Hex-t2 [DRSC28247] the deposit lists infection score, replicate 1 = 17. CG12391 [DRSC06147] gave infection score, replicate 1 = 10.7. Knock-down of CG15260 [DRSC01977] gave: infection score, replicate 1 = 6.99.
